Measurements as given in ChEMBL document CHEMBL1157539, “Thousands of chemical starting points for antimalarial lead identification” (Nature, 2010).
The entries are a selection whose mix differs from that of the whole data set.

What follows are compounds tested on Plasmodium falciparum (assay: GSK_TCMDC: Inhibition of Plasmodium falciparum 3D7 LDH activity, using an LDH reporter assay. Test compounds present at 2uM).
Format: functional, organism-based

Structure (SMILES) | inhibition [%]
CCN1CCCC1COC(=O)C(O)(c1ccc2c(c1)OCO2)c1ccc2c(c1)OCO2 (configuration not stated) | 0
CCN1CCCC(OC(=O)C(O)(c2ccc3c(c2)OCO3)c2ccc3c(c2)OCO3)C1 (configuration not stated) | 0
